Pooled drug test results. Numbers come from NIAID ChemDB, via PubChem.

Shared fields: whole-cell or culture tests; species: HIV-1; method: cytopathic effect / XTT; endpoint: fold resistance

Fold resistance: result on the changed form divided by that on wild type.

SMILES | strain or isolate | cells | mutations | value
Cc1ccnc2c1NC(=O)c1cccnc1N2C1CC1 | NL4-3(RT-4XAZT+Y181C) | CEM + CEM-SS | RT-D67N K70R Y181C T215Y K219Q | 40
Cc1ccnc2c1NC(=O)c1cccnc1N2C1CC1 | NL4-3 | CEM + CEM-SS | RT-V179D | 1.5
O=C1N(Cc2ccc(CO)cc2)[C@H](COc2ccccc2)[C@H](O)[C@@H](O)[C@@H](COc2ccccc2)N1Cc1ccc(CO)cc1 | IIIB | MT-4 | PR-V82A | 1.43
Fc1cccc(F)c1[C@H]1SCc2nc3ccccc3n21 | IIIB | CEM | RT-Y181C | ≥11.1
CCc1c(Sc2ccccn2)n(COCc2ccccc2)c(=O)[nH]c1=O | NL4-3 | CEM + CEM-SS | RT-V179D | 7.78
Nc1ccn([C@H]2CC[C@@H](CO)O2)c(=O)n1 | T3-16(RT-Y181C) | MT-4 | RT-Y181C | 0.7
O=S(=O)(c1ccccc1)c1ccccc1 | UC10-resistant (RT Y181C K101E) | CEM + CEM-SS | RT-Y181C K101E | >16.3
Cc1cn([C@@H]2O[C@H](CO[Si](C)(C)C(C)(C)C)C3(OS(=O)(=O)C=C3N)[C@H]2O[Si](C)(C)C(C)(C)C)c(=O)n(C)c1=O | IIIB | CEM | RT-D138K | >533
CC1=C(C(=O)Nc2ccc(Cl)c(C(=O)OC(C)C)c2)SCCO1 | IIIB HEPT-resistant (IV) | CEM + CEM-SS | RT-P236L | 0.3
Cc1cn([C@H]2C[C@H](N=[N+]=[N-])[C@@H](CO)O2)c(=O)[nH]c1=O | 4XAZT+L100I (RT D67N K70R L100I T215Y K219Q) | CEM + CEM-SS | RT-D67N K70R L100I T215Y K219Q | 20
Nc1nc2c(ncn2[C@H]2CO[C@@H](CO)O2)c(=O)[nH]1 |  | MT-2 | RT-K65R | 6
Cc1cn([C@H]2C[C@H](N=[N+]=[N-])[C@@H](CO)O2)c(=O)[nH]c1=O | 22(RT-L100I Y188H) | MT-4 | RT-L100I Y188H | 0.4
Cc1occc1C(=S)Nc1ccc(Cl)c(/C=N/OC(C)(C)C)c1 | NL4-3 (RT Y181C) | CEM + CEM-SS | RT-Y181C | 6.25
O=S1(c2ccccc2)=NC(=S)Nc2ccccc21 | IIIB HEPT-resistant (IV) | CEM + CEM-SS | RT-P236L | 1
Nc1nc(N)c2ncn([C@H]3CO[C@@H](CO)O3)c2n1 |  | MT-2 | RT-F116Y Q151M T215Y | 8
Cc1cn([C@H]2C[C@H](N=[N+]=[N-])[C@@H](CO)O2)c(=O)[nH]c1=O | NL4-3(RT-4XAZT) | CEM + CEM-SS | RT-D67N K70R T215Y K219Q | 800
CCCc1cc(=O)oc2c3c(c4c(c12)OC(C)(C)C=C4)O[C@H](C)[C@@H](C)[C@@H]3O | IIIB(DPS-R(III)) | CEM + CEM-SS | RT-Y181C | 0.1
C/C=C/CSc1cc(NC(=S)c2ccsc2C)ccc1Cl | UC10/costatolide-resistant (RT K103N) | CEM + CEM-SS | RT-K103N | >10
Nc1nc(=O)n([C@@H]2CS[C@H](CO)O2)cc1F | Site-directed mutant | MT-2 | RT-K65R Y115F | 25.5
CCc1c(C(=O)c2cc(C)cc(C)c2)n(CC2CC=CC2)c(=O)[nH]c1=O | NL4-3 | CEM + CEM-SS | RT-L74V | 0.1
C/C=C/CSc1cc(NC(=S)c2ccsc2C)ccc1Cl | Dihydrocostatolide-resistant (RT-L100I) | CEM + CEM-SS | RT-L100I | 20
Cc1cn([C@H]2C[C@H](N=[N+]=[N-])[C@@H](CO)O2)c(=O)[nH]c1=O | NL4-3 | CEM + CEM-SS | RT-V108I | 3.33
O=c1[nH]cnc2c1ncn2[C@H]1CC[C@@H](CO)O1 | T3-16(RT-Y181C) | MT-4 | RT-Y181C | 1.08
C[C@H](Cn1cnc2c(N)ncnc21)OCP(=O)(O)O | Site-directed mutant | MT-2 | RT-K65R Y115F | 5.9
c1ccc2c(c1)sc1nccn12 | IIIB(A17(III)) | CEM + CEM-SS | RT-K103N Y181C | >200
Fc1cccc(F)c1[C@@H]1SCc2nc3ccccc3n21 | IIIB | CEM | RT-Y188C | 2.5

Conditions beyond the fields shown may differ between rows. An empty or dashed field is not shown.